Anti-infective test results gathered from many reports (values: NIAID ChemDB through PubChem).

Common to all: enzyme or target tests; agent: HIV-1; target: Protease; measure: Ki

Conditions beyond the fields shown may differ between rows.

smiles,setting,mutations,strain or isolate,result
O=C1N(Cc2ccc3ccccc3c2)CC[C@@H](O)[C@@H](Cc2ccccc2)N1Cc1ccc2ccccc2c1,,,,0.25 µM
CC(C)C[C@H](NC(=O)OCc1ccccc1)C(=O)N[C@H](C(=O)N[C@@H](Cc1ccccc1)[C@@H](O)[C@H](O)[C@H](Cc1ccccc1)NC(=O)[C@@H](NC(=O)[C@H](CC(C)C)NC(=O)OCc1ccccc1)C(C)C)C(C)C,,,,0.0014 µM
O=C1N(Cc2ccccc2)CC[C@@H](O)[C@@H](Cc2ccccc2)N1Cc1ccccc1,,,,1.8 µM
CC(C)(C)[C@H](N)C(=O)N[C@@H](Cc1ccccc1)[C@H](O)[C@@H](CO)[C@H](Cc1ccccc1)NC(=O)[C@@H](N)C(C)(C)C,,,,>1.25 µM
CC(C)[C@H](NC(=O)[C@@H](NC(=O)C1CCCC1P(=O)(O)C(NC(=O)OCc1ccccc1)c1ccccc1)C(C)C)C(N)=O,pH 4.5,,,6.9 µM
CC(C)[C@H](NC(=O)OCc1ccccc1)C(=O)N[C@@H](Cc1ccccc1)[C@@H](O)[C@H](CO)[C@H](Cc1ccccc1)NC(=O)[C@H](CC(N)=O)NC(=O)OCc1ccccc1,,,,0.0011 µM
CNC(=O)c1cccc(CN2[C@H](COc3ccccc3)[C@H](O)[C@@H](O)[C@@H](COc3ccccc3)N(Cc3cccc(C(=O)NC)c3)S2(=O)=O)c1,,PR-V82A,,0.39 µM
CCCCNC(=O)[C@H](C)C[C@H](O)[C@H](CC1CCCCC1)NC(=O)[C@@H](NC(=O)[C@H](CCCN)NC(=O)OCc1ccccc1)C(C)C,,,,0.008 µM
O=S1(=O)N(Cc2cccc(I)c2)[C@H](COc2ccccc2)[C@H](O)[C@@H](O)[C@@H](COc2ccccc2)N1Cc1cccc(I)c1,,PR-G48V L90M,,0.079 µM
CC(C)[C@H](NC(=O)[C@H](Cc1ccccc1)NC(=O)OCc1ccccc1)C(=O)N[C@@H](Cc1ccccc1)[C@@H](O)[C@@H](O)[C@@H](Cc1ccccc1)NC(=O)[C@@H](NC(=O)[C@H](Cc1ccccc1)NC(=O)OCc1ccccc1)C(C)C,,,,0.0026 µM
CC(C)(C)NC(=O)[C@H]1N(C(=O)[C@@H](O)[C@H](Cc2ccccc2)NC(=O)[C@H](CC(N)=O)NC(=O)COc2cccc3ccccc23)CSC1(C)C,,,,0.0000068 µM
CC(C)(C)NC(=O)c1ccccc1C[C@@H](O)[C@H](Cc1ccccc1)NC(=O)[C@H](CC(N)=O)NC(=O)Oc1ccc2ccccc2n1,,,,>12.5 µM
CC(C)(O)c1ccc(CN2C(=O)N(Cc3ccc(C(C)(C)O)cc3)[C@H](Cc3ccccc3)[C@H](O)[C@@H](O)[C@H]2Cc2ccccc2)cc1,,,RF,0.0022 µM
CCCCNC(=O)[C@H](C)C[C@H](O)[C@H](CC1CCCCC1)NC(=O)[C@@H](NC(=O)[C@H](CCC(N)=O)NC(=O)OC(C)(C)C)C(C)C,,,,0.056 µM
CCCC1(CCc2ccccc2)CC(O)=C(C(c2cccc(NS(=O)(=O)c3ccc(C#N)cn3)c2)C2CC2)C(=O)O1,,,,0.000007 µM
CNC(=O)[C@@H](NC(=O)[C@H](OCc1ccccc1)[C@H](O)[C@@H](O)[C@@H](OCc1ccccc1)C(=O)N[C@H]1c2ccccc2C[C@H]1O)C(C)C,,PR-G48V L90M,,0.0015 µM
CCCCNC(=O)[C@H](C)C[C@H](O)[C@H](CC1CCCCC1)NC(=O)[C@@H](NC(=O)[C@H](CCCN=C(N)N[N+](=O)[O-])NC(=O)OC(C)(C)C)C(C)C,,,,0.145 µM
CCC(C1=C(O)CC(CCC2CC2)(CCC2CC2)OC1=O)c1cccc(NS(=O)(=O)c2ccc(C#N)cn2)c1,,,,0.00001 µM
COC(=O)c1ccc(CN2[C@H](COc3ccccc3)[C@H](O)[C@@H](O)[C@@H](COc3ccccc3)N(Cc3ccc(C(=O)OC)cc3)S2(=O)=O)cc1,,PR-G48V L90M,,0.095 µM
O=C(NC(Cc1ccccc1)P(=O)(O)CC(Cc1ccccc1)C(=O)O)c1ccccc1,pH 4.5,,,10 µM
COC(=O)[C@H](C)NC(=O)[C@@H](NC(=O)[C@H](Cc1ccccc1)CC(O)C[C@H](Cc1ccccc1)C(=O)N[C@H](C(=O)N[C@H](C(=O)OC)C(C)C)C(C)C)C(C)C,,,,0.013 µM
CCCCNC(=O)[C@H](C)C[C@H](O)[C@H](CC1CCCCC1)NC(=O)[C@H](CC(N)=O)NC(=O)[C@H](CCC(N)=O)NC(=O)OC(C)(C)C,,,,1.05 µM
CC(C)[C@H](NC(=O)[C@@H](NC(=O)C(Cc1ccccc1)CP(=O)(O)C(Cc1ccccc1)NC(=O)[C@@H](NC(=O)[C@@H](NC(=O)OC(C)(C)C)C(C)C)C(C)C)C(C)C)C(N)=O,pH 4.5,,,0.00004 µM
CCCCNC(=O)[C@H](C)C[C@H](O)[C@H](CC1CCCCC1)NC(=O)[C@@H](NC(=O)[C@@H](NC(=O)OC(C)(C)C)[C@@H](C)O)C(C)C,,,,0.077 µM
CC(C)[C@H](NC(=O)OCc1ccccc1)C(=O)O[C@@H](Cc1ccccc1)C(O)[C@H](Cc1ccccc1)OC(=O)[C@@H](NC(=O)OCc1ccccc1)C(C)C,,,,0.016 µM
O=S1(=O)N(Cc2ccc(-c3cccs3)cc2)[C@H](COc2ccccc2)[C@H](O)[C@@H](O)[C@@H](COc2ccccc2)N1Cc1ccc(-c2cccs2)cc1,,PR-I84V,,28 µM
CCCC1(CCc2ccccc2)CC(O)=C(C(c2cccc(NS(=O)(=O)c3ccc(C#N)cn3)c2)C(C)(C)C)C(=O)O1,,,,0.00019 µM
CC(C)(C)[C@H](NC(=O)OCc1ccccc1)C(=O)N[C@@H](Cc1ccccc1)[C@H](O)[C@@H](CO)[C@H](Cc1ccccc1)NC(=O)[C@@H](NC(=O)OCc1ccccc1)C(C)(C)C,,,,>1.25 µM
CCCC1(CCc2ccccc2)CC(O)=C(C(c2cccc(NS(=O)(=O)c3cn(C)cn3)c2)C(C)(C)C)C(=O)O1,,,,0.00005 µM
CC(C)[C@H](NC(=O)OCc1ccccc1)C(=O)N[C@@H](Cc1ccccc1)[C@H](O)[C@@H](C(=O)O)[C@H](Cc1ccccc1)NC(=O)OC(C)(C)C,,,,0.028 µM
CCCC1(CCC)CC(O)=C(C(CC)c2cccc(NS(=O)(=O)c3cn(C)cn3)c2)C(=O)O1,,,,0.000007 µM
CC(C)[C@H](NC(=O)[C@@H](NC(=O)C1CCCC1P(=O)(O)C(Cc1ccccc1)NC(=O)c1ccccc1)C(C)C)C(N)=O,pH 4.5,,,0.45 µM

An empty or dashed field is not shown.